Values from PubChem BioAssay AID504761 (Drosophila RNAi Screening Center, 2011)

Purpose: 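Insect host genes that dengue virus relies on to spread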 (primary screen)
System: D.Mel-2 cells from Drosophila
Knock-down reagent: long dsRNA against Drosophila genes
Conditions: infection with dengue virus type 2; dose and infection time not stated
Detection: 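Per well on two replicate plates, imaging gave the percent of cells positive for viral envelope protein, ranked by infection, and a nuclear count of cells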
Direction: infection score: higher = more virus-infected cells; cell count: higher = more cells in the well
Call rule: 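Low infection ranks in the two replicates (chance level up to 0.065) followed by a retest with a 1.5-fold or larger significant decrease, p below 0.05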
Meaning of the calls: active = confirmed: knock-down lowers infection; inactive = not picked or not confirmed
The deposit covers about 22,000 reagents; shown is a random part of those that have a named target and a result. In the full data, 116 (0.52%) are marked active. 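Calls depend on retest data that are not deposited; infection was ranked per plate without normalising between plates; the unit of the infection score is not given.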 Raw values are not corrected between plates. Not all columns of the deposit are shown. The record does not give: the amount of reagent, the time to read-out.

With Fadd [DRSC14122], what was measured?
infection score, replicate 1: 1.35; cell count, replicate 1: 7416; Call: inactive

What did the screen give for Bap60 [DRSC19337]?
infection score, replicate 1: 3.58; cell count, replicate 1: 4918; Call: inactive

Which result is listed for CG31473 [DRSC15443]?
infection score, replicate 1: 7.51; cell count, replicate 1: 5949; Call: inactive

How did the screen score CG31473 [DRSC29111]?
infection score, replicate 1: 12.3; cell count, replicate 1: 4328; Call: inactive

How did the screen score CG6443 [DRSC02958]?
infection score, replicate 1: 15.2; cell count, replicate 1: 5746; Call: inactive

Which result is listed for CG6443 [DRSC30036]?
infection score, replicate 1: 8.12; cell count, replicate 1: 5803; Call: inactive

How did the screen score CG8064 [DRSC16373]?
infection score, replicate 1: 4.19; cell count, replicate 1: 5676; Call: inactive

With CG6055 [DRSC02923], what does the deposit list?
infection score, replicate 1: 2.73; cell count, replicate 1: 6039; Call: inactive

Which result is listed for CG32248 [DRSC08102]?
infection score, replicate 1: 0.75; cell count, replicate 1: 6358; Call: inactive

What is on record for CG32248 [DRSC25738]?
infection score, replicate 1: 3.7; cell count, replicate 1: 6438; Call: inactive

For CG12942 [DRSC06253], what does the deposit list?
infection score, replicate 1: 2.63; cell count, replicate 1: 6124; Call: active

With CG12942 [DRSC25987], how do the results read?
infection score, replicate 1: 4.73; cell count, replicate 1: 6492; Call: inactive

Entries listed above called active:
CG12942 [DRSC06253] — infection score, replicate 1: 2.63; cell count, replicate 1: 6124; Call: active

Continued.
For CG12111 [DRSC17808], what was measured?
infection score, replicate 1: 5.25; cell count, replicate 1: 6455; Call: inactive

Which result is listed for CG12111 [DRSC26511]?
infection score, replicate 1: 1.94; cell count, replicate 1: 5993; Call: inactive

For CG15824 [DRSC00473], what does the deposit list?
infection score, replicate 1: 3.77; cell count, replicate 1: 6364; Call: inactive

With CG15824 [DRSC27412], what does the deposit list?
infection score, replicate 1: 2.92; cell count, replicate 1: 6884; Call: inactive

How did the screen score dpy [DRSC00233]?
infection score, replicate 1: 2.76; cell count, replicate 1: 6056; Call: inactive

Which result is listed for dpy [DRSC00234]?
infection score, replicate 1: 7.94; cell count, replicate 1: 5630; Call: inactive

For dpy [DRSC00472], what does the deposit list?
infection score, replicate 1: 11.7; cell count, replicate 1: 6595; Call: inactive

For CG8043 [DRSC16368], what was measured?
infection score, replicate 1: 10.7; cell count, replicate 1: 4601; Call: inactive

How did the screen score mld [DRSC13681]?
infection score, replicate 1: 1.06; cell count, replicate 1: 6321; Call: active

For mld [DRSC14622], what does the deposit list?
infection score, replicate 1: 2.75; cell count, replicate 1: 6763; Call: inactive

What is on record for mld [DRSC21771]?
infection score, replicate 1: 29.8; cell count, replicate 1: 4585; Call: inactive

What is on record for mld [DRSC23427]?
infection score, replicate 1: 3.82; cell count, replicate 1: 6258; Call: inactive

What is on record for mld [DRSC23729]?
infection score, replicate 1: 12; cell count, replicate 1: 5974; Call: inactive
